Measured values from several laboratories, pooled; numbers as filed in NIAID ChemDB.

Shared fields: growth or infection tests; species: Hepatitis B virus; cell line: HepG2.117; endpoint: EC50

Blank or dashed fields: not listed here. Neighbouring rows are from separate reports. Two numbers with a dash give a range or band. ECn is the concentration giving n% inhibition of infection, replication or growth.

SMILES	read by	conditions	result
O=C(c1ccc(Br)c(Cl)c1)N1CCS(=O)(=O)C(c2nccs2)C1	PCR	-	0.1–0.5 µM
CNc1n[nH]c2cc(-n3c(=O)c4c(n5ncc(CC(C)C)c35)CN(C(=O)c3ccc(Cl)c(C(F)(F)F)c3)[C@@H](C)C4)ccc12	luminescence	-	0.05–0.5 µM
O=C(c1ccc(Br)c(Cl)c1)N1CCS(=O)(=O)[C@@](F)(C(=O)NCCc2ccccc2)C1	PCR	-	0.5–5 µM
C[C@H](NC(=O)c1c2n(c(=O)n1-c1ccc(OC3CC3)cc1)C[C@@H](C)N(C(=O)c1ccc(Br)c(Cl)c1)C2)c1ccccc1	PCR	-	0.5–5 µM
CC(=O)Nc1cccc([C@@H](C)N2CCn3nc4c(c3C2=O)CN(C(=O)c2ccc(Cl)c(Cl)c2)[C@H](C)C4)c1	PCR	-	0.015 µM
Cc1n[nH]nc1-c1ccc(-n2c(=O)c3c(n4ncc(Cc5ccccc5)c24)CN(C(=O)c2ccc(Br)c(C(F)(F)F)c2)CC3)cc1	luminescence	-	≤0.05 µM
CCS(=O)(=O)c1cccc(CNC(=O)c2c3n(c(=O)n2-c2ccc(OC(C)C)cc2)CCN(C(=O)c2ccc(Br)c(Cl)c2)C3)c1	PCR	-	0.5–5 µM
COc1ccc(Cn2c(=O)c3c(n4ncc(Cc5ccccc5)c24)CN(C(=O)c2ccc(Cl)c(Cl)c2)CC3)cc1	PCR	3 d	0.5–5 µM
CC(=O)Nc1ccc([C@H](C)N2CCn3nc4c(c3C2=O)CN(C(=O)c2ccc(Cl)c(C(F)(F)F)c2)[C@H](C)C4)cc1	PCR	-	0.011 µM
C[C@H]1CS(=O)(=O)[C@@H](c2cccs2)CN1C(=O)Nc1ccc(F)c(Cl)c1	PCR	-	0.1–0.5 µM
COc1ccc(-n2c(=O)c3c(n4ncc(NS(=O)(=O)Cc5ccccc5)c24)CN(C(=O)c2ccc(Br)c(Cl)c2)CC3)cc1	PCR	3 d	0.5–5 µM
C[C@@H]1Cc2c(n3ncc(Cc4ccccc4)c3n(-c3ccc(-c4nn(C)c(=O)[nH]4)cc3)c2=O)CN1C(=O)c1ccc(Br)c(C(F)(F)F)c1	luminescence	-	≤0.05 µM
CNC(=O)c1ccc(-n2c(=O)c3c(n4ncc(Cc5ccc(C#N)cc5)c24)CN(C(=O)c2ccc(Br)c(Cl)c2)CC3)cc1	PCR	3 d	<0.1 µM
O=C(c1ccc(Br)c(Cl)c1)N1CCS(=O)(=O)[C@@](F)(c2ncc(Cc3ccccc3)s2)C1	PCR	-	0.5–5 µM
CC(C)Cc1cnn2c3c(c(=O)n(-c4ccc(-c5nncn5C)cc4)c12)C[C@H](C)N(C(=O)c1ccc(Br)c(C(F)(F)F)c1)C3	luminescence	-	0.05–0.5 µM
CNC(=O)c1ccc(-n2c(=O)c3c(n4ncc(NCc5ccccc5F)c24)CN(C(=O)c2ccc(Br)c(Cl)c2)CC3)cc1	PCR	3 d	<0.1 µM
C#CCc1cnn2c3c(c(=O)n(-c4ccc(C(=O)NC)cc4)c12)CCN(C(=O)c1ccc(Br)c(C(F)(F)F)c1)C3	luminescence	-	≤0.05 µM
CC(C)NC(=O)c1ccc(-n2c(=O)c3c(n4ncc(Cc5ccccc5)c24)CN(C(=O)c2ccc(Br)c(Cl)c2)CC3)cc1	PCR	3 d	0.5–5 µM
CNC(=O)c1ccc(-n2c(=O)c3c(n4ncc(CC(C)C)c24)CN(C(=O)c2ccc(Br)c(C(F)(F)F)c2)[C@H](C)C3)cc1	luminescence	-	≤0.05 µM
COc1ccc(-n2c(=O)c3c(n4ncc(NS(=O)(=O)c5ccccc5)c24)CN(C(=O)c2ccc(Br)c(Cl)c2)CC3)cc1	PCR	3 d	<0.1 µM
O=C(NCc1ccc(OC(F)F)cc1F)c1c2n(c(=O)n1-c1ccc(OCC(F)(F)F)cc1)CCN(C(=O)c1ccc(Br)c(Cl)c1)C2	PCR	-	0.5–5 µM
C[C@@H](c1cnc([C@@]2(F)CN(C(=O)c3ccc(Br)c(Cl)c3)CCS2(=O)=O)s1)c1ccccc1F	PCR	-	<0.1 µM
CC(=O)Nc1ccc([C@@H](C)N2CCn3nc4c(c3C2=O)CN(C(=O)c2ccc(Br)c(C#N)c2)[C@H](C)C4)cc1	PCR	-	0.012 µM
COc1ccc(-n2c(=O)c3c(n4ncc(NC(=O)c5ccccc5)c24)CN(C(=O)c2ccc(Br)c(Cl)c2)CC3)cc1	PCR	3 d	0.1–0.5 µM
O=C(NCc1ccccc1-c1ccccn1)c1c2n(c(=O)n1-c1ccc(OC3CC3)cc1)CCN(C(=O)c1ccc(Br)c(Cl)c1)C2	PCR	-	<0.1 µM
O=C(c1ccc(Br)c(Cl)c1)N1CCS(=O)(=O)[C@](F)(c2ncc(Cc3ccccc3-c3ncccn3)s2)C1	PCR	-	0.5–5 µM
COc1ccc(-n2c(C(=O)N[C@@H](C)c3ccccc3F)c3n(c2=O)CCN(C(=O)c2ccc(Br)c(Cl)c2)C3)cc1	PCR	-	0.1–0.5 µM
CNC(=O)c1ccc(-n2c(=O)c3c(n4ncc(CC5CC5)c24)CN(C(=O)c2ccc(Br)c(C(F)(F)F)c2)CC3)cc1	luminescence	-	≤0.05 µM
COc1ccc(-n2c(C(=O)NCc3cc(OC)cc(OC)c3)c3n(c2=O)CCN(C(=O)c2ccc(Br)c(Cl)c2)C3)cc1	PCR	-	0.1–0.5 µM
CC(=O)Nc1cccc([C@H](C)N2CCn3nc4c(c3C2=O)CN(C(=O)c2ccc(Cl)c(Cl)c2)[C@H](C)C4)c1	PCR	-	0.024 µM

The last 3 rows once more:

SMILES,read by,conditions,result
CNC(=O)c1ccc(-n2c(=O)c3c(n4ncc(CC5CC5)c24)CN(C(=O)c2ccc(Br)c(C(F)(F)F)c2)CC3)cc1,luminescence,-,≤0.05 µM
COc1ccc(-n2c(C(=O)NCc3cc(OC)cc(OC)c3)c3n(c2=O)CCN(C(=O)c2ccc(Br)c(Cl)c2)C3)cc1,PCR,-,0.1–0.5 µM
CC(=O)Nc1cccc([C@H](C)N2CCn3nc4c(c3C2=O)CN(C(=O)c2ccc(Cl)c(Cl)c2)[C@H](C)C4)c1,PCR,-,0.024 µM